Source: patent US20090176776A1, “SMALL MOLECULE INHIBITORS OF HIV-1 CAPSID ASSEMBLY” (UNIVERSITY OF ALABAMA AT BIRMINGHAM, priority 2005, published 2009)

Molecular target: recombinant HIV-1 capsid protein (CA) (Human immunodeficiency virus type 1 group M subtype B, UniProt P12493)
Experiment: Turbidity based HIV-1 capsid assembly assay
Format: biochemical
Conditions: initial assembly rate by turbidity; twofold dilutions over a 128 fold range; 30 μM CA, 2.25 M NaCl

Oc1c(Br)cc(C=NNc2nc3ccccc3s2)c(O)c1Br
IC50: 8 µM
